## Percent effect of library compounds

Data taken from ChEMBL document CHEMBL3988442, “University of Dundee, Small-Polar-MMV Screening Library” (2021).

Results are given as percent effect.
The controls that fix the scale are not given in the record; negative values are as filed.
This is part of a subset picked to be rich in strong results.
Two or more numbers in one place are separate tests of the same structure; such repeats can differ widely.
A dash means the value is not listed here; it may have been measured.

A: 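Growth of Mycobacterium tuberculosis over 4 days (cholesterol / DPPC medium with tyloxapol); the read-out is not stated. Compounds at 50 µM. The record gives no direction; compounds that gave an IC50 in retests scored well above the rest, so higher reads as more growth inhibition. Of about 69,000 compounds tested this way, about 370 (0.54%) reached 50% or more in at least one test.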
B: 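Growth of Mycobacterium tuberculosis over 3 days (7H9 medium with glucose and tyloxapol); the read-out is not stated. Concentration: 50 µM. The record gives no direction; compounds that gave an IC50 in retests scored well above the rest, so higher reads as more growth inhibition. About 69,000 compounds were tested under these conditions; 1.1% (about 760) showed 50% or more at least once.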

structure	A	B
Cc1cc(-c2cnc(NCc3cccnc3)nc2C(C)C)on1	8.686	14.28
Cc1ncc(CN2CCCC(O)(c3ccc(F)cc3)CC2)n1C.O=C(O)CC(O)(CC(=O)O)C(=O)O (stereo not drawn)	-	14.75
Cc1cccc(OC2CCN(c3ccc(C#N)cn3)CC2)n1	-	23.41
CCCOc1cc(CNC(=O)Nc2ccc(C)cc2)ccn1	25.92	-23.21
Cc1cccc(C2CCCN2S(=O)(=O)N(C)C)n1 (stereo not drawn)	-9.674	37.8
O=C1N(Cc2ccc(F)c(F)c2)CCCC12CCN(C1CCCCC1)C2 (stereo not drawn)	53.46	66.83 & 72.71
c1ccc(COc2ccccc2CNC2CCc3ncnn3C2)cc1 (stereo not drawn)	-	8.232
Cc1cc(NC(=O)NCc2nncn2C)ccc1OC(C)C	-	-27.17
Cl.Nc1ccc(-c2cnc(C3CCCN3)cn2)cn1 (stereo not drawn)	-0.1868 & 14.12	8.63
CCC(C)NS(=O)(=O)c1ccc(C(=O)N(C)C2(C#N)CCC2)cc1 (stereo not drawn)	-	-22.57
O=C(NCCc1ccccn1)c1[nH]nc2c1CCCC2	10.05	-
CC[C@H](C)[C@@H](CO)NC(C)Cc1ccc(F)cc1 (stereo partly drawn)	-	10.15
O=C(NCCNc1ncccn1)c1ccc(Cl)s1	-	21.37
CN1CCN(CC(NCc2ccc(F)cc2)c2ccccc2)CC1 (stereo not drawn)	-	-17.62
CN1C[C@@H](N)C[C@H]1C(=O)N1CCC(Cc2ccc(F)cc2)CC1	-	18.83
CC(c1nc(C2CC2)no1)N1CCN(CCN2CCCC2=O)CC1 (stereo not drawn)	-6.064	-
COc1ccc(C2CC(=O)Nc3nc(N4CCOCC4)sc32)cc1 (stereo not drawn)	-	41
[H][C@]12CC[C@]([H])(CN(Cc3cc(C(C)(C)C)[nH]n3)C1)N(Cc1ccccn1)C2	-	6.828
c1ccc(Oc2cccc(OC34CCCN(CC3)C4)c2)cc1 (stereo not drawn)	98.66	86.07 & 83.36
FC(F)Sc1ccc(NCc2nnc(C3CC3)o2)cc1	51.93	54.86
c1cc(-c2nc3c(c(NCCc4c[nH]cn4)n2)CCNCC3)ccn1	-	7.548 & -7.123
Cc1cc(C(O)CCNS(=O)(=O)c2ccc(Cl)s2)c(C)o1 (stereo not drawn)	-	10.29
O=C(Nc1ccc(F)c(-n2cccc2)c1)NC1(CCO)CCOCC1	-	56.41
Cc1nc2c(cc1C(=O)O)CCN(Cc1ccsc1)CC2.O=C(O)C(F)(F)F.O=C(O)C(F)(F)F	-14.33	-18.9
O=C(NCc1nnc2n1CCC2)N(Cc1ccc(F)cc1)C1CC1	-4.472	-
Cc1ccc(OCC(=O)NCc2ccco2)nc1	-12.69 & 6.189	7.529
COCCN(Cc1ccccc1)C(=O)c1csc(-c2nnc[nH]2)n1	2.454 & -2.636	-
Cc1nc2c(c(NCCc3nc(C)c(Cl)s3)n1)CCNCC2	-	0.5022 & 2.378
Cc1ccc(Cl)c2ccc(NC(CO)CO)nc12	-	23.76
CC(NC(=O)c1cc(-c2cccc(Cl)c2)no1)C(=O)N1CCCC1 (stereo not drawn)	-0.9659	4.704 & 8.204
[H][C@]12CC[C@]([H])(CN(Cc3noc(C4CCCC4)n3)C1)N(CC1CCC1)C2	28.21	-22.55
CC(C)OCCn1nnnc1Cc1ccc(Br)cc1	68.8	55.01
Cc1ccc(CN2CCN(C(=O)c3ccc(Br)o3)CC2)cc1	21.11	68.82
Cc1nc(-c2nnc[nH]2)sc1C(=O)N1CCCC1CC(C)(C)C (stereo not drawn)	-14.01 & -0.9954	-
Br.Cc1ccc(N(CC(=O)c2ccc(Br)cc2)C2=NCCCCC2)cc1	89.71	95.67 & 90.3
CC(=O)NCCOc1c(Cl)cccc1Cl	-	-2.815
Cc1cncc(NCc2ccccc2N2CCOCC2)c1	53.3	-
O=C(NCC1CCOC1)c1csc(-c2ccc(Cl)cc2)n1 (stereo not drawn)	-	42.25
COCC(=O)NCCc1ccc(Cl)s1	-	48.45
O[C@@H]1CN(Cc2cc(Cl)cc3cccnc23)C[C@@H]1O	-	-0.5647
CCC(C)NC(=O)c1ccn(COc2ccccc2Cl)n1 (stereo not drawn)	-3.488	-1.059
CC(Cn1cccn1)NS(=O)(=O)Cc1ccccc1 (stereo not drawn)	-	97.1
FC(F)Oc1ccccc1CN1CCCC(c2nccn2CC2CC2)C1 (stereo not drawn)	-	70.91 & 31.53
CC(=O)Nc1ccc(Cl)c(C(=O)N(C)C(C)c2ccon2)c1 (stereo not drawn)	-26.42	-13.05
COC1CCCN(c2nc(C)nc3c2CCN(Cc2ccco2)CC3)C1 (stereo not drawn)	-7.134	3.804 & -9.029
Cc1ccc(C)c(-n2ncc(NC(=O)NC3(C)CCOC3)c2C)c1 (stereo not drawn)	-	-30.67
Cc1nc(CN2C(=O)CCC23CCN(Cc2cccn2C)CC3)cs1.O=C(O)C(F)(F)F.O=C(O)C(F)(F)F	-	1.482
COc1ccc(C2=NOC(CO)C2)cc1 (stereo not drawn)	-	26.46
O=C(c1ccn(COc2ccc(F)cc2)n1)N1CCCC1	34.62	29.82
c1cc(-c2n[nH]c(CNc3nnc(C4CC4)o3)n2)ccn1	-0.2663	8.21
[H][C@@]12CCCCN(C)[C@]1([H])[C@@H](c1ccccc1)CCN2C(=O)c1cccnc1	-	-12.88
Cc1cc(CNc2cncc(C(=O)N(C)C)n2)c2[nH]c(C)c(C)c2c1	3.377	-26.68
CCCc1ccc2oc(C(=O)N3CCN(CCC(N)=O)CC3)c(C)c2c1	5.772	36.62
O=C(O)C(F)(F)F.O=C(O)C(F)(F)F.[H][C@]12CN(Cc3ccncc3)C(=O)[C@@]1([H])CN(C1CCOCC1)C2	-	-1.789 & -4.313
COC(=O)CCc1c(C)nn(-c2nc(C)cc(=O)[nH]2)c1C	-	46.98
[H][C@@]12CCCO[C@]1([H])[C@H](NC(=O)CC1CC1)CN(Cc1ccc(OC)cc1)C2	-7.998	-
Cc1cccc(C(=O)NCc2ccccc2)n1	32.75	38.61
Cc1cccc(-c2noc(CN3CC(n4cc(C)cn4)C3)n2)c1	17.6	26.09
NS(=O)(=O)c1ccc(CC(=O)N2CCCC(n3cccn3)C2)cc1 (stereo not drawn)	18.39	-
CC(C)n1cnc(C2CN(C)c3ccc(C(=O)NC4CCCC4)cc32)n1 (stereo not drawn)	12.56 & -5.688	-
COc1cc(C(=O)NCCc2ccccc2OC)on1	42.91	43.12 & 56.47
O=C(C1CC2(CCNCC2)CN1)N1CCN(c2ccccc2)CC1 (stereo not drawn)	-	-18.11
CN(C(=O)COc1ccc(-c2noc(C3CCCO3)n2)cc1)C1CC1 (stereo not drawn)	-	1.003
CCc1cc(=O)[nH]c(-c2ccc(NCCc3ccc(O)cc3)nc2)n1	3.713	43.22
CCCc1cc(C(=O)NCCCC(=O)N2Cc3ccccc3C2)[nH]n1	-	70.96

7 of the entries, repeated:

structure,A,B
O=C(NCCc1ccccn1)c1[nH]nc2c1CCCC2,10.05,-
Cc1cccc(C2CCCN2S(=O)(=O)N(C)C)n1 (stereo not drawn),-9.674,37.8
Cc1cc(-c2cnc(NCc3cccnc3)nc2C(C)C)on1,8.686,14.28
Cc1ccc(CN2CCN(C(=O)c3ccc(Br)o3)CC2)cc1,21.11,68.82
Cc1ncc(CN2CCCC(O)(c3ccc(F)cc3)CC2)n1C.O=C(O)CC(O)(CC(=O)O)C(=O)O (stereo not drawn),-,14.75
Cc1cc(NC(=O)NCc2nncn2C)ccc1OC(C)C,-,-27.17
Cc1nc2c(cc1C(=O)O)CCN(Cc1ccsc1)CC2.O=C(O)C(F)(F)F.O=C(O)C(F)(F)F,-14.33,-18.9